In patent US4485113A (priority 1979, dated 1984):

tested on: root-knot nematode, Meloidogyne incognita var. acrita; experiment: Nematocide Test; design: key to the marks not given beside the values; conditions: 3.33 mg of test compound per jar; galling of cucumber roots, approximately 3 weeks

Q: For `CSC(C)(C)C=NOC(=O)N(C)SC(C)(C#N)CCl` (stereo not shown), which “pesticidal activity rating, Nematode” value is on record?
A: Its value is “A”.

Q: Which “pesticidal activity rating, Nematode” value does the source give for `CSC(C)=NOC(=O)N(C)SC(C)(C)CCl` here?
A: The value was “A”.

Q: How did the “pesticidal activity rating, Nematode” value turn out when `CN(SC(C)(C)CCl)C(=O)ON=C1CSCCS1` was run?
A: Its value is “A”.

Q: How did the “pesticidal activity rating, Nematode” value turn out when `CN(SC(C)(C#N)CCl)C(=O)ON=C1CSCCS1` (stereo not shown) was run?
A: Its value is “A”.

Q: With `CSC(C)(C)C=NOC(=O)N(C)SC(C)(CCl)CCl` as the compound, how does the “pesticidal activity rating, Nematode” value read?
A: Its value is “C”.

Q: How did the “pesticidal activity rating, Nematode” value turn out when `CN(SC(C)(C#N)CCl)C(=O)ON=CC(C)(C)[N+](=O)[O-]` (stereo not shown) was run?
A: Its value is “A”.

Q: How did the “pesticidal activity rating, Nematode” value turn out when `CN(SC(C)(CCl)CCl)C(=O)ON=C1CSCCS1` was run?
A: Its value is “A”.

Q: `CSC(C)(C)C=NOC(=O)N(C)SC(C)(C)CCl` was tested. Which “pesticidal activity rating, Nematode” value did it give?
A: Its value is “B”.

Q: How did the “pesticidal activity rating, Nematode” value turn out when `CC1OCSC1=NOC(=O)N(C)SC(C)(C)CCl` (stereo not shown) was run?
A: The value was “C”.

Q: How did the “pesticidal activity rating, Nematode” value turn out when `CN(SC(C)(CCl)CCl)C(=O)ON=C1SC(C)(C)C(=O)N1C` was run?
A: The value was “C”.
